The test system of this data set is Vero cells. Briefly: Cytotoxicity against Vero cells (Cell Titer-Glo). To be noted: for SI (CC50/MIC): Tables 1-4 and text; for SI: ratio of the CC50/TB-MIC, Tables P1-P3.

Some results are limits rather than exact numbers.

With `[O-][n+]1nc(NC2CCC2)[n+]([O-])c2ccc(Br)cc21` [Compound 15cd, 7-bromo-3-(cyclobutylamino)benzo[e][1,2,4]triazine 1,4-dioxide], the “SI (CC50/MIC)” value was 24.

Regarding `[O-][n+]1nc(N[C@H]2[C@@H]3C[C@H]4C[C@@H](C3)C[C@@H]2C4)[n+]([O-])c2ccccc21` [Compound 8n, 3-((1R,3S,5r,7r)-adamantan-2-ylamino)benzo[e][1,2,4]triazine 1,4-dioxide], the “SI (CC50/MIC)” value is listed as 2.9. Still for that read-out and setting: the result for `CCC(COC)Nc1n[n+]([O-])c2cc(Cl)ccc2[n+]1[O-]` (centres unmarked) [Compound 15bi, 7-chloro-3-((1-methoxybutan-2-yl)amino)benzo[e][1,2,4]triazine 1,4-dioxide] reads 2.1. Consider `C[C@@H](Nc1n[n+]([O-])c2ccccc2[n+]1[O-])C1CCCCC1` [Compound 8k, (R)-3-((1-cyclohexylethyl)amino)benzo[e][1,2,4]triazine 1,4-dioxide], for which the “SI (CC50/MIC)” value turned out to be 7.1.

With `[O-][n+]1nc(NC2CC2)[n+]([O-])c2ccc(F)cc21` [Compound 15ab, 3-(cyclopropylamino)-7-fluorobenzo[e][1,2,4]triazine 1,4-dioxide], the “SI (CC50/MIC)” value was determined as 2.2.

With `[O-][n+]1nc(NC2CC2)[n+]([O-])c2ccccc21` [SRI-012255], the SI came to 8.3. As for `[O-][n+]1nc(NC2CCC2)[n+]([O-])c2ccccc21` [SRI-012260], the SI is given as 7.1. For `[O-][n+]1nc(NC2CCC2)[n+]([O-])c2ccc(Cl)cc21` [SRI-012302], the SI is 10.3. For the compound `CCNc1n[n+]([O-])c2cc(Cl)ccc2[n+]1[O-]` [SRI-012306], the SI is on record as 2.1.

Take `CC(C)(C)C1CCC(Nc2n[n+]([O-])c3ccccc3[n+]2[O-])CC1` (centres unmarked) [Compound 8j, 3-((4-(tert-butyl)cyclohexyl)amino)benzo[e][1,2,4]triazine 1,4-dioxide]: the “SI (CC50/MIC)” value amounted to 3.7. As for `[O-][n+]1nc(N2CCOCC2)[n+]([O-])c2ccccc21` [Compound 17p, 3-morpholinobenzo[e][1,2,4]triazine 1,4-dioxide], the “SI (CC50/MIC)” value turned out to be 2.2. `Cc1cccc2c1[n+]([O-])c(N[C@@H]1C[C@H]3CC[C@@H]1C3)n[n+]2[O-]` (racemic) [SRI-012461]: the SI worked out at 14.7. Regarding `COc1cc2c(cc1C)[n+]([O-])nc(NC1CCC1)[n+]2[O-]` [SRI-012469], the SI was found to be 20.0. In the case of `COc1cc2c(cc1C)[n+]([O-])nc(N[C@@H]1C[C@H]3CC[C@@H]1C3)[n+]2[O-]` [SRI-012470], the SI is recorded as 10.0. Turning to `CC(C)CC(C)Nc1n[n+]([O-])c2ccccc2[n+]1[O-]` (centres unmarked) [SRI-012263], the SI turned out to be 4.7.

Take `[O-][n+]1nc(NC2CCCCCC2)[n+]([O-])c2ccccc21` [Compound 8g, 3-(cycloheptylamino)benzo[e][1,2,4]triazine 1,4-dioxide]: the “SI (CC50/MIC)” value came out at 3.2. As to `CCC(COC)Nc1n[n+]([O-])c2cc(Cl)ccc2[n+]1[O-]` (centres unmarked) [SRI-012304], the SI is on record as 2.1. As for `[O-][n+]1nc(NC2CC2)[n+]([O-])c2ccc(Cl)cc21` [SRI-012301], the SI is given as 2.2.

`[O-][n+]1nc(NC2CCC2)[n+]([O-])c2ccc(F)cc21` [Compound 15ad, 3-(cyclobutylamino)-7-fluorobenzo[e][1,2,4]triazine 1,4-dioxide]: the “SI (CC50/MIC)” value came out at 10. On to `O=C1CN(/N=C/c2ccc([N+](=O)[O-])o2)C(=O)N1` [Nitrofurantoin, reference compound], for which the “SI (CC50/MIC)” value was 1.1.

As to `[O-][n+]1nc(NC2CCCC2)[n+]([O-])c2ccccc21` [SRI-012265], the SI was determined as 4.2. `CCCC(C)Nc1n[n+]([O-])c2ccccc2[n+]1[O-]` (centres unmarked) [Compound 8h, 3-(pentan-2-ylamino)benzo[e][1,2,4]triazine 1,4-dioxide]: the “SI (CC50/MIC)” value is recorded as 5.3. On to `[O-][n+]1nc(N[C@@H]2C[C@H]3CC[C@@H]2C3)[n+]([O-])c2cc3c(cc21)CCC3` [Compound 15fm, 3-((1R,2R,4S)-bicyclo[2.2.1]heptan-2-ylamino)-7,8-dihydro-6H-indeno[5,6-e][1,2,4]triazine 1,4-dioxide], for which the “SI (CC50/MIC)” value is greater than 41. As to `CCNc1n[n+]([O-])c2cc(Cl)ccc2[n+]1[O-]` [Compound 15ba, 7-chloro-3-(ethylamino)benzo[e][1,2,4]triazine 1,4-dioxide], the “SI (CC50/MIC)” value is recorded as 2.1.

In the case of `CC(C)(C)C1CCC(Nc2n[n+]([O-])c3ccccc3[n+]2[O-])CC1` (centres unmarked) [SRI-012257], the SI is 3.7. In the case of `[O-][n+]1nc(NC2CCCCC2)[n+]([O-])c2ccc(Cl)cc21` [Compound 15bf, 7-chloro-3-(cyclohexylamino)benzo[e][1,2,4]triazine 1,4-dioxide], the “SI (CC50/MIC)” value is on record as 4.2. For `Cc1cccc2c1[n+]([O-])c(NC1CCCC1)n[n+]2[O-]` [SRI-012473], the SI was 11.9. On to `[O-][n+]1nc(NC2CC2)[n+]([O-])c2ccccc21` [Compound 8b, 3-(cyclopropylamino)benzo[e][1,2,4]triazine 1,4-dioxide], for which the “SI (CC50/MIC)” value is given as 8.3. Take `COc1ccc2c(c1)[n+]([O-])nc(NC1CCC1)[n+]2[O-]` [SRI-012463]: the SI stood at 15.8. Take `COc1ccc2c(c1)[n+]([O-])nc(N[C@@H]1C[C@H]3CC[C@@H]1C3)[n+]2[O-]` [Compound 15dm, 3-((1R,2R,4S)-bicyclo[2.2.1]heptan-2-ylamino)-7-methoxybenzo[e][1,2,4]triazine 1,4-dioxide]: the “SI (CC50/MIC)” value is given as greater than 80. As to `CC(Nc1n[n+]([O-])c2ccccc2[n+]1[O-])C(C)(C)C` (centres unmarked) [SRI-012268], the SI worked out at 4.0. On to `[O-][n+]1nc(NC2CCCCC2)[n+]([O-])c2ccc(Cl)cc21` [SRI-012303], for which the SI was 4.2. With `[O-][n+]1nc(N[C@@H]2C[C@H]3CC[C@@H]2C3)[n+]([O-])c2ccc(Br)cc21` [SRI-012467], the SI worked out at 2.6. As for `C[C@@H](Nc1n[n+]([O-])c2ccccc2[n+]1[O-])C1CCCCC1` (racemic) [SRI-012261], the SI turned out to be 7.1.

Consider `[O-][n+]1nc(N[C@@H]2C[C@H]3CC[C@@H]2C3)[n+]([O-])c2ccc(Cl)cc21` [Compound 15bm, 3-((1R,2R,4S)-bicyclo[2.2.1]heptan-2-ylamino)-7-chlorobenzo[e][1,2,4]triazine 1,4-dioxide], for which the “SI (CC50/MIC)” value turned out to be 7.3. The same measure, in the same setting: the result for `CC(C)CCC(C)Nc1n[n+]([O-])c2ccccc2[n+]1[O-]` (centres unmarked) [Compound 8l, 3-((5-methylhexan-2-yl)amino)benzo[e][1,2,4]triazine 1,4-dioxide] reads 3.3. `[O-][n+]1nc(N[C@@H]2C[C@H]3CC[C@@H]2C3)[n+]([O-])c2ccccc21` (racemic) [SRI-012264]: the SI was determined as 5.5. On to `[O-][n+]1nc(NC2CC2)[n+]([O-])c2ccc(Cl)cc21` [Compound 15bb, 7-chloro-3-(cyclopropylamino)benzo[e][1,2,4]triazine 1,4-dioxide], for which the “SI (CC50/MIC)” value was determined as 2.2. On to `[O-][n+]1nc(NC2CCCC2)[n+]([O-])c2ccc(Br)cc21` [Compound 15ce, 7-bromo-3-(cyclopentylamino)benzo[e][1,2,4]triazine 1,4-dioxide], for which the “SI (CC50/MIC)” value worked out at 110. As for `[O-][n+]1nc(NC2CCCCC2)[n+]([O-])c2ccc(F)cc21` [SRI-012275], the SI is reported as less than 4.

Consider `CCNc1n[n+]([O-])c2cc3c(cc2[n+]1[O-])CCC3` [Compound 15fa, 3-(ethylamino)-7,8-dihydro-6H-indeno[5,6-e][1,2,4]triazine 1,4-dioxide], for which the “SI (CC50/MIC)” value is recorded as 29. As for `[O-][n+]1nc(NC2CCCC2)[n+]([O-])c2ccccc21` [Compound 8e, 3-(cyclopentylamino)benzo[e][1,2,4]triazine 1,4-dioxide], the “SI (CC50/MIC)” value amounted to 4.2. For the compound `CCC(CC)Nc1n[n+]([O-])c2ccccc2[n+]1[O-]` [SRI-012271], the SI is on record as 7.3. For `CCC(COC)Nc1n[n+]([O-])c2ccccc2[n+]1[O-]` (centres unmarked) [SRI-012272], the SI is reported as 5.0.

`[O-][n+]1nc(NC2CCCCC2)[n+]([O-])c2ccccc21` [SRI-012266]: the SI is 3.6. The same measure, in the same setting: to `CC1CC(Nc2n[n+]([O-])c3ccccc3[n+]2[O-])CC(C)(C)C1` (centres unmarked) [SRI-012270] belongs 4.2; to `C[C@@H]1[C@H]2C[C@@H](C[C@H]1Nc1n[n+]([O-])c3ccccc3[n+]1[O-])C2(C)C` (racemic) [SRI-012273], 3.7; to `CC(Nc1n[n+]([O-])c2cc(F)ccc2[n+]1[O-])C(C)(C)C` (centres unmarked) [SRI-012283], less than 4. With `CCNc1n[n+]([O-])c2cc(OC)ccc2[n+]1[O-]` [Compound 15da, 3-(ethylamino)-7-methoxybenzo[e][1,2,4]triazine 1,4-dioxide], the “SI (CC50/MIC)” value is given as 6.3. Still for that read-out and setting: the result for `[O-][n+]1nc(NC2CCCCC2)[n+]([O-])c2ccc(F)cc21` [Compound 15af, 3-(cyclohexylamino)-7-fluorobenzo[e][1,2,4]triazine 1,4-dioxide] reads less than 4.0; that for `CCC(COC)Nc1n[n+]([O-])c2cc(F)ccc2[n+]1[O-]` (centres unmarked) [Compound 15ai, 7-fluoro-3-((1-methoxybutan-2-yl)amino)benzo[e][1,2,4]triazine 1,4-dioxide], 1.3. As for `COc1cc2c(cc1C)[n+]([O-])nc(N[C@@H]1C[C@H]3CC[C@@H]1C3)[n+]2[O-]` [Compound 15gm, 3-((1R,2R,4S)-bicyclo[2.2.1]heptan-2-ylamino)-6-methoxy-7-methylbenzo[e][1,2,4]triazine 1,4-dioxide], the “SI (CC50/MIC)” value is greater than 10. Still for that read-out and setting: the result for `[O-][n+]1nc(NC2CCC2)[n+]([O-])c2ccccc21` [Compound 8d, 3-(cyclobutylamino)benzo[e][1,2,4]triazine 1,4-dioxide] reads 7.1. `CCCC(C)Nc1n[n+]([O-])c2ccccc2[n+]1[O-]` (centres unmarked) [SRI-012258]: the SI worked out at 5.3.

As to `CCNc1n[n+]([O-])c2cc(OC)ccc2[n+]1[O-]` [SRI-012285], the SI is given as 6.3. Still for that read-out and setting: the result for `Cc1cccc2c1[n+]([O-])c(NC1CCC1)n[n+]2[O-]` [SRI-012460] reads 69.9.

Source of the values: patent publication US9663478B2, “Benzotriazine oxides as drugs targeting Mycobacterium tuberculosis” (priority 2011, dated 2017).
